Pooled drug test results. Numbers come from NIAID ChemDB, via PubChem.

Shared fields: tests in culture; agent: Candida albicans

Rows are shuffled and stem from different studies.

smiles | endpoint | strain | method | result
Cc1nn(-c2ccc(S(=O)(=O)NC(=S)NC(=O)c3ccccc3)cc2)c(=O)c2c(C)noc12 | MIC | ATCC 10231 | broth dilution | ≥200 µg/mL
COc1cc(O)c2c(c1)C(=O)c1c(cc3c(c1O)-c1c(cc(C)c(C(=O)NC(C)C(=O)O)c1O)[C@H](OC1OC(C)C(N(CC(=O)O)CC(=O)O)C(OC4OCC(O)C(O)C4O)C1O)[C@H]3O)C2=O | MIC | A9540 | - | 50 µg/mL
Cc1nn(-c2ccc(S(=O)(=O)/N=C3\SCC(=O)N3c3ccc(Cl)cc3)cc2)c(=O)c2c(C)noc12 | MIC | ATCC 10231 | broth dilution | 50 µg/mL
COc1ccc(C[C@H](N)C(=O)N[C@H]2[C@@H](O)[C@H](n3cnc4c(N)ncnc43)O[C@@H]2C(=O)O)cc1 | MIC | FP-616 | - | 0.2 µg/mL
C[C@H]1N(C(=O)c2ccc(C(F)(F)F)cc2)C[C@@H](O)O[C@@]1(Cn1cncn1)c1ccc(F)cc1F | MIC | Isolate 5 | - | >64 µg/mL
Cc1nc2c(=O)n(C(=S)Nc3ccccc3)nc(C)c2s1 | MIC | ATCC 10231 | broth dilution | 100 µg/mL
COc1ccc(C2C(C#N)=C(N)N3C(=C2C#N)Oc2ccccc23)cc1 | MIC | - | - | >200 µg/mL
Fc1ccc(N2CCN(c3nc(NCCNc4ncnc5c(Br)cc(Br)cc45)nc(NC4CC4)n3)CC2)cc1 | MIC | MTCC 183 | agar | 50 µg/mL
CC(=O)Nc1ccc(OCC(=O)N2N=C(c3nc4ccccc4[nH]3)CC2c2ccccc2F)cc1 | MIC100 | MTCC 227 | - | 50 µg/mL
Clc1ccc(CCC(Cn2ccnc2)c2ccc(Cl)cc2Cl)cc1 | MIC | - | - | 10 µg/mL
Cc1ccc(C(C)C)cc1 | MLC | M1 | - | 0.16–0.32 µg/mL
COc1ccc(CC(Cn2ccnc2)c2ccc(Cl)cc2Cl)cc1 | MIC | - | - | 10 µg/mL
COc1cc(O)c2c(c1)C(=O)c1c(cc3c(c1O)-c1c(cc(C)c(C(=O)NC(C)C(=O)O)c1O)[C@H](OC1OC(C)C(N(C)C/C=C/C(=O)O)C(OC4OCC(O)C(O)C4O)C1O)[C@H]3O)C2=O | MIC | A9540 | - | 6.3 µg/mL
CC(=O)Nc1ccc(OCC(=O)N2N=C(c3nc4ccccc4[nH]3)CC2c2ccc([N+](=O)[O-])cc2)cc1 | MIC100 | MTCC 227 | - | 100 µg/mL
COc1ccc(CN2CCN(c3nc(Cl)nc(NC4CC4)n3)CC2)c(OC)c1OC | MIC | MTCC 183 | agar | 25 µg/mL
CC(=O)Nc1ccc(OCC(=O)N2N=C(c3nc4ccccc4[nH]3)CC2c2ccccc2)cc1 | MIC100 | MTT 227 | - | 500 µg/mL
NC[C@H]1O[C@H](O[C@H]2[C@H](O)[C@@H](O[C@H]3O[C@H](CO)[C@@H](O)[C@H](N)[C@H]3O)[C@H](N)C[C@@H]2N)[C@H](O)[C@@H](O)[C@@H]1O | MIC | Clinical Isolate 092251 | broth dilution | 18.8 µg/mL
O=C1CS/C(=C/c2nc3ccccc3o2)N1 | MIC | - | - | >200 µg/mL
FC(F)(F)c1cccc(N2CCN(c3nc(NCCNc4ncnc5c(Br)cc(Br)cc45)nc(NC4CC4)n3)CC2)c1 | MIC | MTCC 183 | agar | 25 µg/mL
COc1ccc(C2CC(c3nc4ccccc4[nH]3)=NN2C(=O)COc2ccc(NC(C)=O)cc2)cc1 | MIC100 | MTCC 227 | - | 500 µg/mL
CCCCCCCCOc1ccc(-c2ccc(C(=O)NC3CC(NCCN)CNC(=O)[C@@H]4[C@@H](O)[C@@H](C)CN4C(=O)[C@@H](CO)NC(=O)[C@H]([C@H](O)Cc4ccccc4)NC(=O)[C@@H]4C[C@@H](O)CN4C(=O)[C@H]([C@@H](C)O)NC3=O)cc2)cc1 | MIC50 | 33 isolates fluconazole-resistant | - | 0.125 µg/mL
CC(=O)Nc1ccc(OCC(=O)N2N=C(c3nc4ccccc4[nH]3)CC2c2cccc(O)c2)cc1 | MIC100 | MTCC 227 | - | 1000 µg/mL
COc1cc(O)c2c(c1)C(=O)c1c(cc3c(c1O)-c1c(cc(C)c(C(=O)NC(C)C(=O)O)c1O)[C@H](OC1OC(C)C(N(C)C(=O)c4ccccc4)C(OC4OCC(O)C(O)C4O)C1O)[C@H]3O)C2=O | MIC | A9540 | - | >100 µg/mL
Clc1ccc(C(CCc2ccccc2Cl)Cn2ccnc2)c(Cl)c1 | MIC | - | - | 10 µg/mL
C[C@H]1[C@H](O)[C@@H](C)/C=C/C=C/C=C/C=C/C=C/C=C/C=C/[C@H](O[C@@H]2O[C@H](C)[C@@H](O)[C@H](N)[C@@H]2O)C[C@@H]2O[C@](O)(C[C@@H](O)C[C@@H](O)CC[C@H](O)[C@@H](O)C[C@@H](O)CC(=O)O[C@H]1C)C[C@H](O)[C@H]2C(=O)O | MIC | ATCC11651 | - | 1.56 µg/mL
Clc1ccc(CC(Cn2ccnc2)c2ccccc2Br)c(Cl)c1 | MIC | - | - | 10 µg/mL
COc1cc(O)c2c(c1)C(=O)c1c(cc3c(c1O)-c1c(cc(C)c(C(=O)NC(C)C(=O)O)c1O)[C@H](OC1OC(C)C(N(C)CC(=O)O)C(OC4OCC(O)C(O)C4O)C1O)[C@H]3O)C2=O | MIC | A9540 | - | 6.3 µg/mL
CC(=O)Nc1ccc(OCC(=O)N2N=C(c3nc4ccccc4[nH]3)CC2c2ccc(C)cc2)cc1 | MIC100 | MTCC 227 | - | 500 µg/mL
Cc1nn(-c2ccc(S(=O)(=O)/N=C3\SCCN3c3ccc(F)cc3)cc2)c(=O)c2c(C)noc12 | MIC | ATCC 10231 | broth dilution | ≥200 µg/mL
OC(CN1CCN(c2ccc(OCc3ccncc3)cc2)CC1)(Cn1cncn1)c1ccc(F)cc1F | MIC80 | 304322 | - | 0.5 µg/mL
Clc1nc(NC2CC2)nc(N2CCN(Cc3ccccc3)CC2)n1 | MIC | MTCC 183 | agar | 50 µg/mL
C=CCc1ccc(O)c(OC)c1 | MIC90 | 3253 | turbidity | 475 µg/mL
COc1cc(/C=C(\C#N)c2nc3ccccc3o2)ccc1O | MIC | - | - | >200 µg/mL
O[C@](Cn1cncn1)(Cn1cnc(/C=C/c2ccc(OCC(F)(F)C(F)F)cc2)n1)c1ccc(F)cc1F | EC50 | CA505 | - | 0.3 µM
CC(C)CC1NC(=O)CC(CCCCCCCCC(C)O)OC(=O)C(CC(C)C)NC(=O)C(CC(C)C)NC(=O)C(CC(C)C)NC(=O)C(C(C)C)NC(=O)C(CC(=O)O)NC(=O)C(CC(C)C)NC1=O | MFC | Clinical isolate | visual reading | 2 µg/mL
CC(=O)Nc1ccc(OCC(=O)N2N=C(c3nc4ccccc4[nH]3)CC2c2ccccc2O)cc1 | MIC100 | MTCC 227 | - | 500 µg/mL
N#C/C(=C1\SC(=O)CN1c1ccc(Cl)cc1)c1nc2ccccc2o1 | MIC | - | - | >200 µg/mL
COc1cc2c(cc1OC)-c1cc3ccc(OC)c(OC)c3c[n+]1CC2 | MIC | ATCC11651 | - | >500 µg/mL

2 of the rows above, restated:

smiles | endpoint | strain | method | result
CC(=O)Nc1ccc(OCC(=O)N2N=C(c3nc4ccccc4[nH]3)CC2c2ccccc2O)cc1 | MIC100 | MTCC 227 | - | 500 µg/mL
COc1ccc(CC(Cn2ccnc2)c2ccc(Cl)cc2Cl)cc1 | MIC | - | - | 10 µg/mL

A number after MIC or MFC names an inhibition level or a share of isolates. ECn is the concentration giving n% inhibition of infection, replication or growth. Blank or dashed fields: not listed here. Two numbers with a dash give a range or band.